Anti-infective test results gathered from many reports (values: NIAID ChemDB through PubChem).

Shared fields: growth or infection tests; agent: Hepatitis C virus; endpoint: EC50

Rows are shuffled and stem from different studies. ECn: concentration that inhibits the pathogen or its effect by n%. Blank or dashed fields: not listed here.

structure	setting	mutations	read by	cell line	strain	value
CC(C)(C)NC(=O)N[C@H](C(=O)N1C[C@H]2[C@@H]([C@H]1C(=O)NC(CC1CCC1)C(=O)C(N)=O)C2(C)C)C(C)(C)C		R1135K S1560G K1691R T1993A G2042C L2155P P2166L	PCR	Huh7	1b H77	0.52 µM
COc1ccc([C@@H]2Oc3ccc([C@H]4Oc5cc(O)cc(O)c5C(=O)[C@@H]4O)cc3O[C@H]2CO)cc1O					1b	53.9 µM
CCOC(=O)c1cnc2c(cnn2CC)c1NN=C(C)C			luminescence	n4mBid		8 µM
CCC(NC(=O)C1CCC1C(=O)[C@@H](NC(=O)[C@@H](NC(=O)c1cnccn1)C1CCCCC1)C(C)(C)C)C(=O)C(=O)NC1CC1			PCR	Huh7		>10 µM
CC(=O)OC1CCC2(C)C(CCC3C2CC(=O)C2(C)C3CC(N3CC3)C2C(C)=O)C1			PCR	Huh7-1	sg1a (H77)	14.15 µM
COc1ccc(-c2c(C3CCCCC3)c3sc(C(=O)O)cc3n2CC(=O)N(C)C2CCN(C(C)C)C2)cc1				Huh7		0.4 µM
CN(Cc1cc(C(C)(C)C)cc(Br)c1O)Cc1cc(C(C)(C)C)cc(Br)c1O			PCR	Huh7-1	JFH-1	1.8 µM
Cc1cccc(C(=O)Nc2cccc(Cn3nc(C(N)=O)c4ccccc43)c2)c1			fluorescence	Huh7.5.1	J399EM	0.23 µM
COc1ccc2c(O[C@@H]3C[C@H]4C(=O)N[C@]5(C(=O)O)C[C@H]5/C=C\CCCCC[C@H](NC(=O)OC5CCCC5)C(=O)N4C3)cc(-c3csc(NC(C)C)n3)nc2c1			luciferase	1C	GT1b	0.00091 µM
CC1(C)[C@@H](O[C@@H]2O[C@H](C(=O)O)[C@@H](O)[C@H](O)[C@H]2O)CC[C@]2(C)[C@H]3C(=O)C=C4[C@@H]5C[C@@](C)(C(=O)O)CC[C@]5(C)CC[C@@]4(C)[C@]3(C)CC[C@@H]12			microscopy / fluorescence	Huh7.5	2a	>30 µg/mL
C[C@@]1(O)[C@H](O)[C@@H](CO)O[C@H]1n1cnc2c(N)ncnc21			luciferase	Huh7 replicon	5a	0.18 µM
COC(=O)N[C@H](C(=O)N1CCC[C@H]1c1ncc(-c2ccc(-c3ccc(-c4cnc([C@@H]5CCCN5C(=O)[C@@H](NC(=O)OC)C(C)C)[nH]4)cc3)cc2)[nH]1)C(C)C			luciferase	1C	GT1b	0.00004 µM
O=C(/C=C/c1ccc(C(F)(F)F)cc1F)NO			luciferase / replicon	Huh7	GT1b	0.5 µM
COc1c(CC=C(C)C)c(O)cc2oc(=O)c(-c3ccc(O)cc3O)cc12			microscopy / fluorescence	Huh7.5	2a	8.8 µg/mL
O=C(O)c1c(-c2ccc(F)cc2)nc(SCc2nc3ccccc3[nH]2)[nH]c1=O			replicon / PCR	Huh7		0.277 µM
C#C[C@@]1(O)[C@H](O)[C@@H](CO)O[C@H]1n1ccc2c(N)ncnc21			luciferase / replicon	Huh7		0.11 µM
CO[C@@H]1[C@H](O)[C@@H](CO)O[C@H]1n1ccc(N)nc1=O	24 h			Huh7		21.2 µM
COc1ccc2c(O[C@@H]3C[C@H]4C(=O)N[C@]5(C(=O)NS(=O)(=O)C6CC6)C[C@H]5/C=C\CCCCN(C)C(=O)[C@@H]4C3)cc(-c3nc(C(C)C)cs3)nc2c1C			antigen	Huh7.5	SA13	0.106 µM
NC(=O)c1nn(Cc2cccc(NC(=O)c3cccnc3)c2)c2ccccc12			fluorescence	Huh7.5.1	J399EM	0.267 µM
CC[C@H](NC(=O)c1c(C)c(-c2ccccc2)nc2ccccc12)c1ccccc1			luminescence	n4mBid		6.6 µM
C[C@@]1(O)[C@H](O)[C@@H](CO)O[C@H]1n1ccc2c(N)ncnc21			PCR			0.3 µM
CCN(CC)CCN1C(=O)c2cccc3cc(N)cc(c23)C1=O			PCR	Huh7-1	sg1b	10.3 µM
Nc1nc(=O)c2ncn([C@@H]3C[C@H](O)[C@@H](CO)O3)c2c(=O)[nH]1			cytopathic effect	HepG2.2.15		10 µM
C=C(c1ccc(C(=O)O)cc1)c1cc2c(cc1C)C(C)(C)CCC2(C)C			MTT	Huh7.5.1		0.00019 µM
O1[As]2O[As]3O[As]1O[As](O2)O3			PCR		Strain O genotype 1b	0.27 µM
O=C(O)c1cc2c(s1)c(C1CCCCC1)c(-c1ccc(Oc3ccccc3)cc1)n2CC(=O)N1CCOCC1				Huh7		2.6 µM
C[C@@]1(O)[C@H](O)[C@@H](CO)O[C@H]1n1cnc2c(N)ncnc21			luciferase	Huh7	2a	0.7987 µM
C[C@@]1(O)[C@H](O)[C@@H](CO)O[C@H]1c1ccc2c(N)ncnn12			PCR	Huh7.5	GT2a (JFH1)	0.58 µM
O=C1C[C@@H](c2ccc(OC3O[C@H](CO)[C@@H](O)[C@H](O)[C@H]3O)cc2)Oc2cc(O)ccc21			microscopy / fluorescence	Huh7.5	2a	75 µg/mL
Nc1nc(=O)c2ncn(COCCO)c2c(=O)[nH]1			cytopathic effect	HepG2.2.15		>500 µM
CNC(=O)c1c(-c2ccc(F)cc2)oc2cc(N(CCO)S(C)(=O)=O)c(C3CC3)cc12			luciferase	Huh7	5a	0.0011 µM
O=C(O)c1cccc([As]=[As]c2cccc(C(=O)O)c2)c1			PCR	Huh7-1	sg2a (JFH)	0.5 µM
C=C1C(=O)O[C@@H]2C[C@@H](C)[C@@H]3C=CC(=O)[C@@]3(C)[C@@H](O)[C@H]12			replicon	Huh7		1.25 µM
CC[C@H](C)C(=O)O[C@H]1C[C@H](O)C=C2C=C[C@H](C)C(CC[C@@H](O)C[C@H](O)CC(=O)O)[C@H]21			luciferase / replicon	Huh 5-2		>20 µM
CCC[C@H](NC(=O)[C@@H]1[C@H]2CCC[C@H]2CN1C(=O)[C@@H](NC(=O)[C@@H](NC(=O)c1cnccn1)C1CCCCC1)C(C)(C)C)C(=O)C(=O)NC1CC1			GFP / fluorescence	Huh7.5.1	J399EM	0.528 µM
COCCN(CC(=O)NC1CCCCC1)C(=O)CCN1C(=O)[C@H](C)C2CC[C@H](C)C3CC[C@]4(C)OO[C@]32C1O4			replicon	Huh 5-2		2 µM
CC1=C(/C=C/C(C)=C\C=C\C(C)=C\C(=O)O)C(C)(C)CCC1			MTT	Huh7.5.1		0.00424 µM
COC(=O)N[C@H](C(=O)N1CCC[C@H]1c1ncc(-c2ccc(-c3ccc(-c4cnc([C@@H]5CCCN5C(=O)[C@@H](NC(=O)OC)C(C)C)[nH]4)cc3)cc2)[nH]1)C(C)C			luciferase / replicon	Huh7.5.1	JFH-1	0.000078 µM
CC(C)OC(=O)[C@H](C)N[P@](=O)(OCC1O[C@@H](n2ccc(=O)[nH]c2=O)[C@](C)(F)[C@@H]1O)Oc1ccccc1		P89L K583E	luciferase	1C	GT3a	0.013 µM
CN1CCn2c(c(C3CCCCC3)c3sc(C(=O)O)cc32)-c2ccccc2C1				Huh7		0.62 µM
Cn1cnc([N+](=O)[O-])c1Sc1ncnc2nc[nH]c12			replicon / PCR	MDBK	1BN	<5 µM
Nc1ncnc2c1ccn2[C@@H]1O[C@H](CO)[C@@H](O)[C@H]1O			cytopathic effect	Huh7	GT1b	0.08 µM
C[C@@]1(O)[C@H](O)[C@@H](CO)O[C@H]1n1cnc2c(N)ncnc21		P58L	luciferase / reporter gene	Huh7.5	genotype 1b	0.0277 µM
O=C(O)c1cc2c(s1)c(C1CCCCC1)c(-c1ccccc1)n2CCN1CCCC1				Huh7		3.5 µM
N#Cc1c(-c2ccc(Cl)cc2)nc(SCc2nc3ccccc3[nH]2)[nH]c1=O			replicon / PCR	Huh7		0.312 µM
COc1ccc([C@H]2Oc3ccc([C@H]4Oc5cc(O)cc(O)c5C(=O)[C@@H]4O)cc3O[C@@H]2CO)cc1O					1b	14.6 µM
C[C@@]1(O)[C@H](O)[C@@H](CO)O[C@H]1n1ccc(N)nc1=O			luciferase / replicon	Huh7	GT2a	3.765 µM
C/C1=C\CC[C@@]2(C)O[C@H]2[C@H]2OC(=O)[C@@H](CSCCO)[C@@H]2CC1			replicon	Huh7		>10 µM
NC(=O)c1nn(Cc2cccc(NC(=O)c3ccco3)c2)c2ccccc12			fluorescence	Huh7.5.1	J399EM	0.674 µM
CC[C@H]1C[C@]1(NC(=O)[C@@H]1C[C@@H]2CN1C(=O)[C@H](C(C)(C)C)NC(=O)OCC(C)(C)CCCCc1cccc3c1CN(C3)C(=O)O2)C(=O)NS(=O)(=O)C1CC1		L1062M R1181K	antigen	Huh7.5	JFH-1	5.111 µM
CCOC(=O)C1=C(C)NC(C)=C(C(=O)OC)C1c1cccc(Cl)c1Cl			luminescence	n4mBid		9.5 µM
CC(C)OC(=O)[C@H](C)N[P@](=O)(OC[C@H]1O[C@@](C#N)(c2ccc3c(N)ncnn23)[C@](C)(O)[C@@H]1OC(=O)C(C)C)Oc1ccccc1			luciferase	Huh7 replicon	4a ED43	0.11 µM
O=C1NNC(=O)c2[nH]cnc2N1			cytopathic effect	HepG2.2.15		>500 µM
C=CC(=O)NCC(=O)N1C[C@H](Oc2nccc3ccc(Br)cc23)C[C@H]1C(=O)N[C@]1(C(=O)NS(=O)(=O)C2CC2)C[C@H]1C=C			luciferase		1b A156S	0.042 µM
CN(C)CCN(C)[C@H]1COc2ccccc2-c2c(C3CCCCC3)c3ccc(C(=O)O)cc3n2C1			luciferase	1C	GT1b	0.554 µM
O=C(O)c1c(-c2ccc(O)cc2)nc(SCc2nc3ccccc3[nH]2)[nH]c1=O			replicon / PCR	Huh7		0.116 µM
C[C@H]1C(OCc2ccc(CO)cc2)OC2OC3(C)CCC4[C@H](C)CCC1[C@@]24OO3			PCR	Huh7.5.1	JFH-1/CS-N6	26 µM
C=C1C(=O)O[C@H]2[C@H]1CC/C(C)=C/CC[C@@]1(C)O[C@@H]21			replicon	Huh7		2.21 µM
CCCCCCCCCCCCNc1nc(=O)c2ncn([C@H]3C[C@H](O)[C@@H](CO)O3)c2c(=O)[nH]1			cytopathic effect	HepG2.2.15		>500 µM
CC(C)(C)OC(=O)N[C@@H]1CCCCCC=C[C@@H]2C[C@@]2(C(=O)O)NC(=O)[C@@H]2C[C@@H](OC(=O)N3Cc4ccccc4C3)CN2C1=O			ELISA	Huh7		1.22 µM
C/C1=C\CC[C@@]2(C)O[C@H]2[C@H]2OC(=O)[C@@H](CN3CCOCC3)[C@@H]2CC1			replicon	Huh7		5.41 µM
CN1c2cc3c(cc2N=C(c2ccc(C(=O)O)cc2)c2ccccc21)C(C)(C)CCC3(C)C			MTT	Huh7.5.1		0.00000477 µM
CC1=CC[C@H](C(=O)N(c2cc(C#CC(C)(C)C)sc2C(=O)O)C2CCC(O)(CO[C@H]3CCOC3)CC2)CC1			luciferase	Huh7-Lunet	GT-1b Con1	0.0028 µM
CS(=O)(=O)Nc1ccc2c(c1)S(=O)(=O)N=C(C1=C(O)[C@@H]3[C@H]4CC[C@H](C4)[C@@H]3N(Cc3ccc(F)cc3)C1=O)N2			luciferase / replicon	Huh7	GT1b	0.0081 µM
COc1ccc(C(=O)Nc2cccc(Cn3nc(C(N)=O)c4ccccc43)c2)cc1		Luciferase reporter gene	luciferase / replicon	Huh7.5.1	J399EM	0.182 µM
O=c1c(O)c(-c2ccc(O)c(O)c2)oc2cc(O)c(O)c(O)c12			PCR	Huh7.5	1b	5.4 µM
C[C@@]1(O)[C@H](O)[C@@H](CO)O[C@H]1n1cnc2c(N)ncnc21			luciferase	Huh7-Lunet	GT4a	0.24 µM
O=C1Nc2nc[nH]c2C(=O)N(Cc2ccccc2)N1			cytopathic effect	HepG2.2.15		>500 µM
CC1(C)[C@@H](O[C@H]2O[C@H](C(=O)O)[C@@H](O)[C@H](O)[C@H]2O[C@@H]2O[C@H](C(=O)O)[C@@H](O)[C@H](O)[C@H]2O)CC[C@]2(C)[C@H]3C(=O)C=C4[C@@H]5C[C@](C)(C(=O)O)CC[C@]5(C)CC[C@@]4(C)[C@]3(C)CC[C@@H]12			microscopy / fluorescence	Huh7.5	2a	>30 µg/mL
O=C(O)c1cc2c(s1)c(C1CCCCC1)c(-c1ccccc1)n2Cc1ccccc1				Huh7		10.7 µM
C=C[C@@H]1C[C@]1(NC(=O)[C@@H]1C[C@@H]2CN1C(=O)[C@H](C(C)(C)C)NC(=O)C[C@@H]1C[C@H]1CCCCCc1nc3ccc(OC)cc3nc1O2)C(=O)NS(=O)(=O)C1CC1		P89L K583E	luciferase	1C	GT3a	0.051 µM

A second listing of 10 rows from above:

| structure | setting | mutations | read by | cell line | strain | value |
|---|---|---|---|---|---|---|
| C[C@@]1(O)[C@H](O)[C@@H](CO)O[C@H]1n1cnc2c(N)ncnc21 |  |  | luciferase | Huh7 replicon | 5a | 0.18 µM |
| CC(C)(C)NC(=O)N[C@H](C(=O)N1C[C@H]2[C@@H]([C@H]1C(=O)NC(CC1CCC1)C(=O)C(N)=O)C2(C)C)C(C)(C)C |  | R1135K S1560G K1691R T1993A G2042C L2155P P2166L | PCR | Huh7 | 1b H77 | 0.52 µM |
| CCOC(=O)c1cnc2c(cnn2CC)c1NN=C(C)C |  |  | luminescence | n4mBid |  | 8 µM |
| CCC(NC(=O)C1CCC1C(=O)[C@@H](NC(=O)[C@@H](NC(=O)c1cnccn1)C1CCCCC1)C(C)(C)C)C(=O)C(=O)NC1CC1 |  |  | PCR | Huh7 |  | >10 µM |
| C[C@@]1(O)[C@H](O)[C@@H](CO)O[C@H]1n1ccc(N)nc1=O |  |  | luciferase / replicon | Huh7 | GT2a | 3.765 µM |
| CC1=CC[C@H](C(=O)N(c2cc(C#CC(C)(C)C)sc2C(=O)O)C2CCC(O)(CO[C@H]3CCOC3)CC2)CC1 |  |  | luciferase | Huh7-Lunet | GT-1b Con1 | 0.0028 µM |
| C=C(c1ccc(C(=O)O)cc1)c1cc2c(cc1C)C(C)(C)CCC2(C)C |  |  | MTT | Huh7.5.1 |  | 0.00019 µM |
| CC1(C)[C@@H](O[C@H]2O[C@H](C(=O)O)[C@@H](O)[C@H](O)[C@H]2O[C@@H]2O[C@H](C(=O)O)[C@@H](O)[C@H](O)[C@H]2O)CC[C@]2(C)[C@H]3C(=O)C=C4[C@@H]5C[C@](C)(C(=O)O)CC[C@]5(C)CC[C@@]4(C)[C@]3(C)CC[C@@H]12 |  |  | microscopy / fluorescence | Huh7.5 | 2a | >30 µg/mL |
| Nc1nc(=O)c2ncn([C@@H]3C[C@H](O)[C@@H](CO)O3)c2c(=O)[nH]1 |  |  | cytopathic effect | HepG2.2.15 |  | 10 µM |
| COc1ccc2c(O[C@@H]3C[C@H]4C(=O)N[C@]5(C(=O)NS(=O)(=O)C6CC6)C[C@H]5/C=C\CCCCN(C)C(=O)[C@@H]4C3)cc(-c3nc(C(C)C)cs3)nc2c1C |  |  | antigen | Huh7.5 | SA13 | 0.106 µM |